This assay concerns the target recombinant gp120MN (HIV-1 (isolate MN, clade B)). The assay is described as follows: ELISA; competition: CD4 added to gp120MN captured with D7324, 1 h at room temperature, then antibodies added for 1 h at 37°; antibody binding read, percent inhibition. For orientation: In an ELISA, binding on a coated surface is turned into a signal by an enzyme label.

These results are taken from publication PMC2797330.

On to “Recombinant soluble human CD4 (from UniProt P01730 26-396) (receptor)”, for which the percent inhibition of MAb 11A8 binding to gp120 at 10 nM sCD4 was 50% and the percent inhibition of MAb b12 binding to gp120 at 10 nM sCD4 is 95%.
